The source of these data is patent US7968530B2 (priority 2005, dated 2011).

The assay deals with Phytophthora infestans. To be noted: ionic couple of acid choline phosphite, 1575 ppm equivalent phosphorous acid.

In the case of Acid Choline Phosphite [Compound 2], the “Synergy factor (experimental activity/activity calculated according to Limpel)” value is on record as 1.4.
